Test results: ChEMBL document CHEMBL4118110, “The identification of inhibitory compounds of Rickettsia prowazekii methionine aminopeptidase for antibacterial applications” (Bioorg Med Chem Lett, 2018)

Assay: Inhibition of Rickettsia prowazekii N-terminal His6-tagged methionine aminopeptidase 1 expressed in Escherichia coli DLB3 Rosetta cells at 10 uM using Met-AMC as substrate preincubated for 1 hr followed by 30 mins incubation after substrate addition measured after 90 mins in presence of MnCl2 by fluorescence assay relative to control
Procedure, shortened: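 Recombinant R. prowazekii MetAP with Mn(II) as the metal cofactor. Met-AMC substrate; release of free AMC is followed by fluorescence (excitation 360 nm, emission 460 nm). Activity is the slope of fluorescence versus time, compared with an uninhibited control.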

Nc1nnc(SCc2c(F)cccc2Cl)[nH]1
inhibition: 49 to 64%
